A mixed list of measured activities; the numbers were collected in NIAID ChemDB.

Common to all: whole-cell or culture tests; organism: Hepatitis C virus; cell line: Huh7; measure: EC50

Two numbers with a dash give a range or band.

SMILES,strain or isolate,changes,method,setting,value
C/C1=C\CC[C@@]2(C)O[C@H]2[C@H]2OC(=O)[C@@H](CN3CCCC3)[C@@H]2CC1,-,-,replicon,-,2.82 µM
C=C[C@@H]1C[C@]1(NC(=O)[C@@H]1C[C@@H](Oc2cc(-c3ccccc3)nc3cc(OC)ccc23)CN1C(=O)[C@@H](NC(=O)Oc1ccccc1)C(C)(C)C)C(=O)NS(=O)(=O)C1CC1,1b,-,replicon,-,<0.05 µM
C/C1=C\CC[C@@]2(C)O[C@H]2[C@H]2OC(=O)[C@@H](CN3CCCCC3)[C@@H]2CC1,-,-,replicon,-,1.64 µM
NC(=O)c1nnn([C@@H]2C[C@H](CO)C[C@H]2O)c1N,-,-,-,-,>320 µM
C=C1CC[C@H]2C(=C)CC[C@H]3C(=C)C(=O)O[C@@H]3[C@@H]12,-,-,replicon,-,3.08 µM
CC[C@H](C)[C@H](NC(=O)OC(C)(C)C)C(=O)N1C[C@H](Oc2cc(-c3ccccc3)nc3cc(OC)ccc23)C[C@H]1C(=O)NC1(C(=O)NS(=O)(=O)C2CC2)CC12CCC2,1b,-,replicon,-,<5 µM
C=CC1CC1(NC(=O)C1CC(Oc2cc(-c3ccccc3)nc3cc(OC)ccc23)CN1C(=O)[C@@H](NC(=O)OC(C)(C)C)C(C)C)C(=O)NS(=O)(=O)Cc1ccccc1,-,-,replicon,-,0.28 µM
ClCc1nc2ccccc2[nH]1,-,-,replicon / PCR,-,0.25 µM
CCC[C@H](NC(=O)C1CC(Oc2cc(-c3ccccc3)nc3cc(OC)ccc23)CN1C(=O)[C@@H](NC(=O)OC(C)(C)C)C(C)C)C(=O)CS(=O)(=O)c1ccccc1,-,-,replicon,-,>10 µM
CNC(=O)c1c(-c2ccc(F)cc2)oc2cc(N(CCO)S(C)(=O)=O)c(C3CC3)cc12,2b,-,luciferase,-,0.0162 µM
C=C[C@@H]1C[C@]1(NC(=O)[C@@H]1C[C@@H](Oc2cc(-c3ccccc3)nc3cc(OC)ccc23)CN1C(=O)[C@@H](Nc1ccccc1[N+](=O)[O-])C(C)(C)C)C(=O)NS(=O)(=O)C1CC1,1b,-,replicon,-,<5 µM
CCC[C@H](NC(=O)C1CC(Oc2cc(-c3ccccc3)nc3cc(OC)ccc23)CN1C(=O)[C@@H](NC(=O)OC(C)(C)C)C(C)C)C(=O)NS(=O)(=O)Cc1ccccc1,-,-,replicon,-,4.6 µM
CCN(CC)C[C@@H]1C(=O)O[C@H]2[C@H]1CC/C(C)=C/CC[C@@]1(C)O[C@@H]21,-,-,replicon,-,2.51 µM
COc1ccc2c(O[C@@H]3C[C@@H](C(=O)NC4(C(=O)NS(=O)(=O)C5CC5)CC4)N(C(=O)[C@@H](NC(=O)OC(C)(C)C)C(C)(C)C)C3)cc(-c3ccccc3)nc2c1,1b,-,replicon,-,<5 µM
CCOc1nc(N)nc2c1ncn2[C@@H]1O[C@H](COP(=S)(N[C@@H](C)C(=O)OC(C)C)Oc2ccccc2)[C@@H](F)[C@@]1(C)O,-,-,luciferase,-,10–100 µM
Nc1nc(N)nc(-c2ccccc2-c2nc(N)nc(N)n2)n1,JFH-1,-,luciferase,-,>10 µM
CCOc1nc(N)nc2c1ncn2[C@@H]1O[C@H](COP(=O)(N[C@@H](C)C(=O)OCC(C)(C)C)Oc2ccccc2Cl)[C@@H](F)[C@@]1(C)O,-,-,luciferase,-,<1 µM
CN(C)Cc1c(C(=O)O)sc2c(C3CCCCC3)c(-c3ccccc3)[nH]c12,-,-,-,-,3.4 µM
O=C(O)c1c(-c2ccccc2O)nc(NCc2nc3ccccc3[nH]2)[nH]c1=O,-,-,replicon / PCR,-,0.657 µM
N=C(N)n1c(N)nc2ccccc2c1=O,JFH-1,-,luciferase,-,>10 µM
O=C(O)c1c(-c2ccccc2Cl)nc(SCc2nc3ccccc3[nH]2)[nH]c1=O,-,-,replicon / PCR,-,0.298 µM
COc1c(C)c2c(c(O)c1CC(=O)O)C(=O)OC2,-,-,-,-,>40 µM
CCOc1nc(N)nc2c1ncn2[C@@H]1O[C@H](COP(=S)(N[C@@H](C)C(=O)OC2CCCCC2)Oc2ccccc2)[C@@H](F)[C@@]1(C)O,-,-,luciferase,-,1–10 µM
C[C@@]1(O)[C@H](O)[C@@H](CO)O[C@H]1n1cnc2c(N)ncnc21,1a,-,luciferase,-,0.3031 µM
CCCC(NC(=O)[C@@H]1C2CCCC2CN1C(=O)[C@@H](NC(=O)[C@H](CC1CCCCC1)NC(=O)c1cnccn1)C(C)(C)C)C(=O)C(=O)NC1CC1,-,-,replicon,-,0.55 µM
COC(=O)c1cn([C@@H]2C[C@H](CO)C[C@H]2O)nn1,-,-,-,-,>320 µM
Nc1ncnc2c1ncn2[C@@H]1O[C@H](OCCP(=O)(O)O)[C@@H](O)[C@H]1O,-,-,replicon,-,200 µM
CC(=O)Nc1ccc(-c2ccc(Cl)cc2)c(COc2ccc(-c3nc4cc(C(=O)O)ccc4n3C3CCCCC3)cc2)c1,1b,-,luciferase,-,0.1093 µM
CCC[C@H](NC(=O)C1CC(Oc2cc(-c3ccccc3)nc3cc(OC)ccc23)CN1C(=O)[C@@H](NC(=O)OC(C)(C)C)C(C)C)C(=O)O,-,-,replicon,-,>10 µM
COC(=O)NC[C@H](C(=O)N1CCCC1c1ncc(-c2ccc(-c3ccc(-c4cnc(C5CCCN5C(=O)[C@@H](NC(=O)OC)C(C)C)[nH]4)cc3)cc2)[nH]1)C(C)C,Con1,-,luciferase,-,0.055 µM
CC(C)N1CC[C@@H](N2CCn3c(c(C4CCCCC4)c4sc(C(=O)O)cc43)-c3ccccc3C2)C1,-,-,-,-,0.19 µM
CCC[C@H](NC(=O)C1CC(Oc2cc(-c3ccccc3)nc3cc(OC)ccc23)CN1C(=O)[C@@H](NC(=O)OC(C)(C)C)C(C)C)C(=O)NS(=O)(=O)c1ccccc1,-,-,replicon,-,>10 µM
CCC[C@H](NC(=O)[C@@H]1C2CCCC2CN1C(=O)[C@@H](NC(=O)[C@@H](NC(=O)c1cnccn1)C1CCCCC1)C(C)(C)C)C(=O)C(=O)N[C@@H](C)c1ccc(C)cc1,-,-,replicon,-,0.47 µM
C#CCOC(=O)N[C@H](C(=O)N1C[C@H](Oc2cc(-c3ccccc3)nc3cc(OC)ccc23)C[C@H]1C(=O)N[C@]1(C(=O)NS(=O)(=O)C2CC2)C[C@H]1C=C)C(C)(C)C,1b,-,replicon,-,<0.05 µM
CCOc1nc(N)nc2c1ncn2[C@@H]1O[C@H](COP(=O)(N[C@@H](C)C(=O)OCC(C)(C)C)Oc2ccccc2)[C@@H](F)[C@@]1(C)O,-,-,luciferase,-,<1 µM
CCC[C@H](NC(=O)C1CC(Oc2cc(-c3ccccc3)nc3cc(OC)ccc23)CN1C(=O)[C@@H](NC(=O)OC(C)(C)C)C(C)C)C(=O)NS(=O)(=O)C(C)C,-,-,replicon,-,>10 µM
O=C(O)c1c(-c2ccc(F)cc2)nc(NCc2nc3ccccc3[nH]2)[nH]c1=O,-,-,replicon / PCR,-,0.546 µM
NC(=O)c1nnn([C@@H]2C[C@H](CCP(=O)(O)O)C[C@H]2O)c1N,-,-,-,-,>320 µM
C=CC1CC1(NC(=O)C1CC(Oc2cc(-c3ccccc3)nc3cc(OC)ccc23)CN1C(=O)[C@@H](NC(=O)OC(C)(C)C)C(C)C)C(=O)NS(=O)(=O)c1ccccc1,-,-,replicon,-,0.04 µM
O=S(=O)(F)c1ccc2nc(-c3cccc(Sc4ccccc4)c3)cc(Cl)c2c1,JFH-1,-,luciferase,-,>10 µM
CCC[C@H](NC(=O)[C@@H]1[C@H]2CCC[C@H]2CN1C(=O)[C@@H](NC(=O)[C@@H](NC(=O)c1cnccn1)C1CCCCC1)C(C)(C)C)C(=O)C(=O)NC1CC1,1a H77,T1280A S1358P D1432N F1809L I1839V,PCR,-,0.7 µM
CO[C@@H]1[C@H](O)[C@@H](CO)O[C@H]1n1ccc(N)nc1=O,-,-,-,48 h,12.6 µM
NC1=NC(c2ccc(Cl)cc2)N(c2ccc(S(N)(=O)=O)cc2)C(N)=N1,JFH-1,-,luciferase,-,>10 µM
C=C1C(=O)O[C@H]2[C@H]1CC/C(C)=C/CC[C@@]1(C)O[C@@H]21,-,-,replicon,-,2.21 µM
CCC[C@H](NC(=O)[C@@H]1C2CCCC2CN1C(=O)[C@@H](NC(=O)[C@@H](NC(=O)c1cnccn1)C(C)CC)C(C)(C)C)C(=O)C(=O)NC1CC1,-,-,replicon,-,1.2 µM
C=C1C(=O)O[C@@H]2/C=C(\C)CC/C=C(\C)CC[C@@H]12,-,-,replicon,-,2.69 µM
CCCC(NC(=O)[C@@H]1C2CC[C@@H](F)C2CN1C(=O)[C@@H](NC(=O)[C@@H](NC(=O)c1cnccn1)C(C)C)C(C)C)C(=O)C(=O)NC1CC1,-,-,replicon,-,<25 µM
C[C@@H]1C(=O)O[C@H]2[C@H]1CC[C@@]1(C)C=CC(=O)[C@@]3(C)O[C@@]213,-,-,replicon,-,>10 µM
CCCC(NC(=O)[C@@H]1C2CCC(F)(F)C2CN1C(=O)[C@@H](NC(=O)[C@@H](NC(=O)c1cnccn1)C(C)C)C(C)C)C(=O)C(=O)NC1CC1,-,-,replicon,-,<25 µM
CCC(NC(=O)C1CCC1C(=O)[C@@H](NC(=O)[C@@H](NC(=O)c1cnccn1)C1CCCCC1)C(C)(C)C)C(=O)C(=O)NC1CC1,-,-,PCR,-,>10 µM
N#Cc1c(-c2ccc(Cl)cc2)nc(SCc2nc3ccccc3[nH]2)[nH]c1=O,-,-,replicon / PCR,-,0.312 µM
O=C(O)c1cc2c(s1)c(C1CCCCC1)c(-c1ccccc1)n2Cc1ccncc1,-,-,-,-,4.2 µM
C1CC2NCCC3NCCC(N1)N32,JFH-1,-,luciferase,-,>10 µM

The last 3 rows once more:

{"SMILES": "N#Cc1c(-c2ccc(Cl)cc2)nc(SCc2nc3ccccc3[nH]2)[nH]c1=O", "method": "replicon / PCR", "value": "0.312 µM"}
{"SMILES": "O=C(O)c1cc2c(s1)c(C1CCCCC1)c(-c1ccccc1)n2Cc1ccncc1", "value": "4.2 µM"}
{"SMILES": "C1CC2NCCC3NCCC(N1)N32", "strain or isolate": "JFH-1", "method": "luciferase", "value": ">10 µM"}

Rows are shuffled and stem from different studies. ECn: concentration that inhibits the pathogen or its effect by n%. An empty or dashed field is not shown.